Source: the supplement of paper PMC9931576
Human monoclonal antibodies against the spike receptor-binding domain (heavy:light variable regions). IC50 against pseudoviruses bearing the spike of naturally observed variants; lower = stronger; >10 µg/ml means not reached at the top dose. No active / inactive call. The stated detection limit is 0.0005 µg/ml; values near or below 0.001 µg/ml lie at the floor of the assay.

Tests used:
Experiment in all cases: pseudovirus neutralization IC50; higher = weaker neutralization
[1] = molecular target: SARS-CoV-2 Omicron BA.1 spike pseudovirus
Procedure: (§1)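 Single-round VSV luciferase pseudovirus mixed with antibody dilutions for 1 h and put on Huh-7 cells for about a day; IC50 from the dose curve.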

[2] = molecular target: SARS-CoV-2 Omicron BA.2 spike pseudovirus
Procedure: as §1

[3] = molecular target: SARS-CoV-2 Omicron BA.2.75 spike pseudovirus
Procedure: as §1

[4] = molecular target: SARS-CoV-2 Omicron BA.5 spike pseudovirus
Procedure: as §1

[5] = molecular target: SARS-CoV-2 Omicron BQ.1.1 spike pseudovirus
Procedure: as §1

[6] = molecular target: SARS-CoV-2 Omicron XBB spike pseudovirus
Procedure: as §1

[7] = molecular target: SARS-CoV-2 early D614G spike pseudovirus
Procedure: as §1

B1: BD55-6477 (protein)
chain 1: QVQLVQSGAEVMKPGSSVKVSCKASGGIFSTYTFTWVRQAPGQGLEWMGKITPILDLALYSQNFQGRVTITADKSTSTTYMELSSLRSDDTAIYYCARIHDSYFDPWGQGTLVTVSS
chain 2: QSALTQPPSASGSLGQSVTISCTGTSNDVGGYNYVSWYQQHPGKAPKLIIYEVVKRPSGVPDRFSGSKSGNTASLTVSGLQAEDEADYYCSSYAGSPYVFGTGTKVSVL
B1 was tested, and the “pseudovirus neutralization IC50” value [1] was 0.0813 µg/mL, the “pseudovirus neutralization IC50” value [2] was over 10 µg/mL and the “pseudovirus neutralization IC50” value [3] was over 10 µg/mL. The “pseudovirus neutralization IC50” value [4] was over 10 µg/mL, the “pseudovirus neutralization IC50” value [5] was over 10 µg/mL and the “pseudovirus neutralization IC50” value [6] was over 10 µg/mL. For the same binder, the “pseudovirus neutralization IC50” value [7] was 3.13 µg/mL.

B2: BD55-6466 (protein)
chain 1: EVHVVESGGGLVQPGRSLRLTCTGAGFTFADSALGWFRQAPGKGLEWIGFIRNKAYDGTTEYAASVKGRFTISRDDSKSVAYLQMNSLKPEDTAFYYCARDAFSSSWYGAGWFDPWGQGTLVTVSS
chain 2: DIVMTQSPDSLAVSLGERATINCKSSQSVLYSAGNRNYLAWYQQKPGQPPKVLLYWASTRESGVPDRFSGSGSGTDFTLTISSLQAEDVAIYYCQQYYSNPLTFGGGTKVEIK
In the case of B2, the “pseudovirus neutralization IC50” value [1] is reported as 8.44 µg/mL, the “pseudovirus neutralization IC50” value [2] is reported as over 10 µg/mL and the “pseudovirus neutralization IC50” value [3] is reported as over 10 µg/mL. For the same binder, the “pseudovirus neutralization IC50” value [4] was over 10 µg/mL, the “pseudovirus neutralization IC50” value [5] was over 10 µg/mL and the “pseudovirus neutralization IC50” value [6] was over 10 µg/mL. For the same binder, the “pseudovirus neutralization IC50” value [7] was 1.66 µg/mL.

B3: BD55-6480 (protein)
chain 1: QVQLQESGPGLVKPSETLSLTCTVSGDSINSDIYYWGWVRQPPGKGLAWIGLINYRGSTDYSPSLKSRVTIAVDTSKNQFSLKLSSVTAADTAVYFCARGTHTYPHQSHNYYYYNGMDVWGQGTTVTVSS
chain 2: DIQMTQSPSSLSASVGDRVTITCRASQTITNYLSWYQLKPGKAPKLLIYAASTLQSGVPSRFSGSGSGTDFTLTITSLEPEDFATYSCQQSYTTPFTFGPGTKVDIK
B3 was tested, and the “pseudovirus neutralization IC50” value [1] was over 10 µg/mL, the “pseudovirus neutralization IC50” value [2] was over 10 µg/mL and the “pseudovirus neutralization IC50” value [3] was over 10 µg/mL. The “pseudovirus neutralization IC50” value [4] was over 10 µg/mL, the “pseudovirus neutralization IC50” value [5] was over 10 µg/mL and the “pseudovirus neutralization IC50” value [6] was over 10 µg/mL. For the same binder, the “pseudovirus neutralization IC50” value [7] was over 10 µg/mL.

B4: BD55-6482 (protein)
chain 1: QVQMVQSGAEVKKPGASVKVSCQAYGYTFNSYDINWVRQATGQGLEWIGWMSPKSGQTGFAHKFQGRVNMTSDTSISTVYMELSSLGSDDTAVYFCARDAYGSNYYYYTMDVWGQGTTVTVSS
chain 2: DIQMTQSPSSLSASVGDRVTISCRASQSITYHLNWYQQKPGKAPKFLIHAASSLQSGVPSRFSGSGSGTDFTLTINSLQPEDFATYYCQQSYSFPSTFGGGTKVEI
B4 was tested, and the “pseudovirus neutralization IC50” value [1] was over 10 µg/mL, the “pseudovirus neutralization IC50” value [2] was over 10 µg/mL and the “pseudovirus neutralization IC50” value [3] was over 10 µg/mL. For the same binder, the “pseudovirus neutralization IC50” value [4] was over 10 µg/mL, the “pseudovirus neutralization IC50” value [5] was over 10 µg/mL and the “pseudovirus neutralization IC50” value [6] was over 10 µg/mL. The “pseudovirus neutralization IC50” value [7] was over 10 µg/mL.

B5: BD55-6475 (protein)
chain 1: QVQLVESGGGVVQSGRSLRLSCEASGFIFGDHGMHWVRQAPGKGLEWVAVIWYDGSKKFYTDSVKGRFTISRDTSKSTLYLQMNSLGAEDTAVYFCARDTWGTMVRGNNFYYGMDVWGQGTTVIVSS
chain 2: DIQMTQSPSSLSASVGDRVAITCRASQSIGNYLNWYQLKPGKSPKLLIYLTSNLQSGVPSRFSGSGSGTDYTLTINSLQPEDFATYYCQQSDSVPITFGQGTRLEIK
B5 was tested, and the “pseudovirus neutralization IC50” value [1] was over 10 µg/mL, the “pseudovirus neutralization IC50” value [2] was over 10 µg/mL and the “pseudovirus neutralization IC50” value [3] was over 10 µg/mL. For the same binder, the “pseudovirus neutralization IC50” value [4] was over 10 µg/mL, the “pseudovirus neutralization IC50” value [5] was over 10 µg/mL and the “pseudovirus neutralization IC50” value [6] was over 10 µg/mL. For the same binder, the “pseudovirus neutralization IC50” value [7] was over 10 µg/mL.

B6: BD55-6467 (protein)
chain 1: EVQLVESGGGLVQPGGSLRLSCAASGFTFSTFPMHWVRQAPGKGLEYVSYISSDGGSTHYANSVKGRFTISRDNSKNTLFLQMGSLRAEDMAVYYCARDLDYDAWRGSGMDVWGQGTTVTVSS
chain 2: QSVLTQPPSVSGAPGQRVTISCTGSSSNIGAGYDIHWYQQLPGTAPKLLIYGNNNRPSGVPDRFSGSKSGTSASLAITGLQAEDEADYYCQSYDSSLSGHVVFGGGTKLTVL
With B6 the “pseudovirus neutralization IC50” value [1] was over 10 µg/mL, the “pseudovirus neutralization IC50” value [2] was over 10 µg/mL and the “pseudovirus neutralization IC50” value [3] was over 10 µg/mL. For the same binder, the “pseudovirus neutralization IC50” value [4] was over 10 µg/mL, the “pseudovirus neutralization IC50” value [5] was over 10 µg/mL and the “pseudovirus neutralization IC50” value [6] was over 10 µg/mL. For the same binder, the “pseudovirus neutralization IC50” value [7] was 4.07 µg/mL.
